Laboratory results reported in PMC9033297.

Molecular target: ACE2 protein fused to Fc domain (ACE2-Fc) (UniProt Q9BYF1)
Assay: BLI

With “RBM-CH3(scaffold) (from UniProt P0DTC2 416-525)” the Kd was 350 nM, the koff was 0.0016 s⁻¹ and the kon was 4500 M⁻¹ s⁻¹.
